Assay results as given in patent US11567075B2, “Immunochromatographic device, immunochromatographic kit and immunochromatographic detection method” (TANAKA KIKINZOKU KOGYO K.K., priority 2018, dated 2023).

Tested on: inactivated Group A β-hemolytic streptococcus
Test: Immunochromatographic detection, visual evaluation of red line on detection part
Design: key: “+” (positive) when the red line on the detection part (4) could be visually observed; “++” (strong positive) when the red line could be visually observed clearly; “±” (weak positive) when a light red line could be visually observed; “−” (negative) when the red line could not be visually observed
Conditions: for Result of Visual Evaluation (After Storage at 50° C. for 24 Hours): device stored at 50° C. for 24 hours, then positive analyte sample 5×10^5 org/mL, after 5 minutes; for Result of Visual Evaluation (After 5 Minutes): positive analyte sample 5×10^5 org/mL, 150 μL

Row | Compound | Result of Visual Evaluation (After Storage at 50° C. for 24 Hours) | Result of Visual Evaluation (After 5 Minutes)
1 | O=C1OC(=O)C2C3C=CC(C12)C1C(=O)OC(=O)C31 (centres unmarked) [Example 1, bicyclo[2,2,2]oct-7-ene-2,3,5,6-tetracarboxylic dianhydride] | ++ | ++
2 | tetrapropenylsuccinic anhydride [Example 3] | ± | ±
3 | octadecenylsuccinic anhydride [Example 4] | ± | ±
4 | O=C1CC(C2CC3C(=O)OC(=O)C3c3ccccc32)C(=O)O1 (centres unmarked) [Example 8, 4-(2,5-dioxotetrahydrofuran-3-yl)-1,2,3,4-tetrahydronaphthalene-1,2-dicarboxylic anhydride] | ++ | ++
5 | O=C1OC(=O)[C@@H]2CC=CC[C@H]12 [Comparative Example 9, cis-4-cyclohexene-1,2-dicarboxylic anhydride] | − | +
6 | CC(=O)Nc1cccc2c1C(=O)OC2=O [Example 6, 3-acetamidophthalic anhydride] | + | +
7 | O=C(O)CN(CCO)CCO [compound 5, N,N-bis(2-hydroxyethyl)glycine] | − | −
8 | CC#Cc1ccc2c(c1)C(=O)OC2=O [Example 5, 4-(1-propynyl)phthalic anhydride] | + | +
9 | O=C(ON1C(=O)CCC1=O)c1ccccc1 [Comparative Example 1, N-(benzoyloxy)succinimide] | − | −
10 | O=C1OC(=O)C2CC3C(=O)OC(=O)C3CC12 (centres unmarked) [Example 7, 1,2,4,5-cyclohexanetetracarboxylic dianhydride] | ++ | ++
